The text below walks through data of the supplement of paper PMC9931576.

Experiment in all cases: pseudovirus neutralization IC50; higher = weaker neutralization
Experiment [1] has as its target SARS-CoV-2 Omicron BA.1 spike pseudovirus. The procedure:
(§1)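 Single-round VSV luciferase pseudovirus mixed with antibody dilutions for 1 h and put on Huh-7 cells for about a day; IC50 from the dose curve.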

Experiment [2] concerns the target SARS-CoV-2 Omicron BA.2 spike pseudovirus. The method, then: as §1
Experiment [3] concerns the target SARS-CoV-2 Omicron BA.2.75 spike pseudovirus. The procedure:
as §1

Experiment [4] addresses SARS-CoV-2 Omicron BA.5 spike pseudovirus. The procedure:
as §1

Experiment [5] deals with SARS-CoV-2 Omicron BQ.1.1 spike pseudovirus. The procedure: as §1
The target in experiment [6] is SARS-CoV-2 Omicron XBB spike pseudovirus. The procedure: as §1
For experiment [7], the target named is SARS-CoV-2 early D614G spike pseudovirus. The procedure: as §1

Human monoclonal antibodies against the spike receptor-binding domain (heavy:light variable regions). IC50 against pseudoviruses bearing the spike of naturally observed variants; lower = stronger; >10 µg/ml means not reached at the top dose. No active / inactive call. The stated detection limit is 0.0005 µg/ml; values near or below 0.001 µg/ml lie at the floor of the assay.

B1: BD55-6502 (protein)
chain 1: QVQLVESGGGVVQPGRSLRLSCAASGFTFTSYGIHWVRQAPGTGLEWVALISSDGYNEYYADSVKGRFTISRDNSKNKMFLQMNSLRAEDTAVYYCAKDAGHDYGGNWGGLLTDYWGQGTLVTVSS
chain 2: QSVLTQPPSVSGAPGQRVTISCTGSSSNIGAGYDVHWYQQLPGTAPKLLIYGNSNRPSGVPDRFSGSKSGTSASLAITGLQAEDEADYYCQSYVSGLSGYVLFGGGTKLTVL
Consider B1, for which the “pseudovirus neutralization IC50” value in experiment [1], in experiment [2], in experiment [3], in experiment [4], in experiment [5] and in experiment [6] was greater than 10 µg/mL in each case. In experiment [7], the “pseudovirus neutralization IC50” value is greater than 10 µg/mL.

B2: BD55-6468 (protein)
chain 1: QVQLVQSGSELKKPGASLKVSCKASGYSFSSYAMHWVRQAPGQGLEWMGWINPNTGIPTYGQAFTGRFVFSLDTSVSTAFLQISSLEAEDTAVYYCARSRSTWPFSDPFDIWGQGTMVTVSS
chain 2: IVMTQSPATLSVSPGERASLSCRAGQSVSNNLAWYQQKPGQAPRLLIFGASTRATGVPARFSGSGSGTDFTLTISSLQSEDFAVYYCQQYNYWPLTFGGGTKVEIK
Regarding B2, the “pseudovirus neutralization IC50” value in experiment [1], in experiment [2], in experiment [3], in experiment [4], in experiment [5] and in experiment [6] was greater than 10 µg/mL throughout. In addition, in experiment [7], the “pseudovirus neutralization IC50” value was found to be 0.0133 µg/mL.

B3: BD55-6472 (protein)
chain 1: QVLLVQSGAEVQKPGASVKVSCKASGYIFTSCDINWVRQAPGQGLEWMGWVSPASGDTGSAHKFQGRVTMTRDTSISTAFMELSSLRSEDTAVYFCAIALSSASQPRLFVDYYYGWDVWGQGTTVTVSS
chain 2: DIQMTQSPTSLSASVGDRVTITCRASLSIDNYVNWYQQKPGKAPRLLIYAASSLQSGVPSRFSGRGSGTDFTLTISSLQPEDFATYFCQQSYSTPPTFGGGTKVEIK
For B3, the “pseudovirus neutralization IC50” value in experiment [1], in experiment [2], in experiment [3], in experiment [4], in experiment [5] and in experiment [6] was greater than 10 µg/mL throughout. Moreover, the “pseudovirus neutralization IC50” value in experiment [7] was greater than 10 µg/mL.

B4: BD55-6478 (protein)
chain 1: QLRLQESGPGLVKPSETLSLTCTVSDDSISSSNYYWGWVRQPPGKGLEWIGTIYYTGVTYYSPSLKSRVTMSVDTSRNQFSLTLTSVTAADTALYYCARHLGGDREESLTSSWYDSWTGGHFDLWGRGSRVTVSS
chain 2: QSVLTQPPSVSGAPGQRVTISCTGSSSNIGASYDVHWYQQLPGTAPKLLIYGNNNRPSGVPDRFSGSKSGTSASLAITRLQAEDEADYYCQSYDSNMSGWVFGGGTKLTVL
Consider B4, for which the “pseudovirus neutralization IC50” value was 0.29 µg/mL in experiment [1]; greater than 10 µg/mL in experiment [2]; greater than 10 µg/mL in experiment [3]; greater than 10 µg/mL in experiment [4]; greater than 10 µg/mL in experiment [5]; greater than 10 µg/mL in experiment [6]. In addition, the “pseudovirus neutralization IC50” value in experiment [7] turned out to be 0.0249 µg/mL.

B5: BD55-6470 (protein)
chain 1: QVQLQESGPGLVRPSETLSLTCSVSGGSISSHYWSWIRQPPGKGLEWIGYIYYSGSTDYNPSLKSRVTISVDTSKKQFSLKLTSVTAADTAVYYCATVPGLPAAGTFYYYYGMDVWGQGTAVTVSS
chain 2: DIQMTQSPSSLSASVGDRVTITCRASQSISDFLNWYQQKPGKAPKLLIYGASSLQSGVPSRFTGSGSGTDFTLTISSLQPEDFATYYCQQSYTLFTFGPGTKVDF
Take B5: the “pseudovirus neutralization IC50” value in experiment [1], in experiment [2], in experiment [3], in experiment [4], in experiment [5] and in experiment [6] was greater than 10 µg/mL throughout. Further, in experiment [7], the “pseudovirus neutralization IC50” value is greater than 10 µg/mL.

B6: BD55-6494 (protein)
chain 1: QVQLVQSGPEVKKPGTSVKISCEASGFTFSSSAVQWVRQARGQRLEWIGWIVVGSGDTDYGQKFQKRVTVTRDMSTNTAYMELSSLKFEDTAVYYCATGVFHGLSAFDIWGLGTMVTVSS
chain 2: EIVLTQSPGTLSLSPGERVTLSCRASQSVSSFYLAWYQQKPGQAPRLLIWGASNRATGIPDRFSGSGSGTDFTLTISRLEPEDFAVYYCQHFDNSPLFGQGTKLEIK
For the molecule B6, the “pseudovirus neutralization IC50” value in experiment [1], in experiment [2], in experiment [3], in experiment [4], in experiment [5] and in experiment [6] was greater than 10 µg/mL each time. The “pseudovirus neutralization IC50” value in experiment [7] is greater than 10 µg/mL.

B7: BD55-6473 (protein)
chain 1: EVRLVESGGGLVKPGGSLRLSCAASGFSFSDAWMTWVRQAPGKGLEWVGHIKSEISGGTTDYAAPVKGRFTISRDDSKDILYLQMNSLKTEDTAMYYCVSSDIWRYYHYGMDVWGRGTTVTVSS
chain 2: DIQMTQSPSTLSTSVGDRVTITCRASQSISTWLAWYQQKPGKAPKLLIYKASTLESGVPSRFSGSGSGTEFTLTISGLQPDDFATYYCQQYNTYPLTFGGGTKVQIK
B7: the “pseudovirus neutralization IC50” value in experiment [1], in experiment [2], in experiment [3], in experiment [4], in experiment [5] and in experiment [6] was greater than 10 µg/mL each time. Further, the “pseudovirus neutralization IC50” value in experiment [7] is greater than 10 µg/mL.

B8: BD55-6499 (protein)
chain 1: EVQVVESGGGLVKPGGSLRLSCAASGFTSSDAWMSWVRQAPGKGLEWIGRIKSEVGGGTRDYAAPVKGRFIISRDDSENTLYLQMNSLKAEDTAVYYCTTAVNIVITVEPDDAFDTWGQGTMVTVSS
chain 2: SSELTQDPAVSVALGQTVRMTCQGDSLRSYYASWYQQKPGQAPRLVFYGKNNRPSGIPDRFSGSSSGHTASLTITGAQAEDEADYFCNSRDSSGNQFVFGSGTKVTVL
As to B8, the “pseudovirus neutralization IC50” value in experiment [1], in experiment [2], in experiment [3], in experiment [4], in experiment [5] and in experiment [6] was greater than 10 µg/mL in each case. In addition, in experiment [7], the “pseudovirus neutralization IC50” value was greater than 10 µg/mL.

B9: BD55-1256 (protein)
chain 1: QVQLVQSGAEVKRPGSSVKVSCKASGDTFSRYAISWVRQAPGQGLEWMGRIIPMFDKANYAEKFQGRVTMTADKSTITAYMDVSGLRSEDTATYYCGRSSFYDSSGAYIDSWGQGTLVTVSS
chain 2: EIVLTQSPGTLSLSPGERATLSCRASQTVGGSYLAWYQQKPGQAPRLLIYGASSRAAGIPDRFSGSGSGTDFTLTISRLEPEDFALYYCHQYASSPRTFGQGTKVEVK
Take B9: the “pseudovirus neutralization IC50” value in experiment [1] is 2.35 µg/mL; in experiment [2], 1.85 µg/mL; in experiment [3], 0.0598 µg/mL; in experiment [4], greater than 10 µg/mL; in experiment [5], greater than 10 µg/mL; in experiment [6], greater than 10 µg/mL. In addition, the “pseudovirus neutralization IC50” value in experiment [7] was found to be 0.001 µg/mL.

B10: BD55-6481 (protein)
chain 1: QVQLVQSGAEVKKPGASVKVACKASGYTFTSHDINWVRQATGQGLEWMGWMNPNSGNTGYAQKFQGRVTMTRNTSISTAYMELSSLRSEDTAVYYCAAYSGSGRHYPDYYYGLDVWGQGTTVTVSS
chain 2: DIQMTQSPSSLSASVGDRVTITCRASQSISDYLNWYQQKPGKAPKVLIYAATSLLSGVPSRFIGRGSGTDFTLTISSLQPEDFATYYCQQSYSTPPTFGQGTRLEIK
With B10, the “pseudovirus neutralization IC50” value in experiment [1], in experiment [2], in experiment [3], in experiment [4], in experiment [5] and in experiment [6] was greater than 10 µg/mL each time. Besides, in experiment [7], the “pseudovirus neutralization IC50” value is greater than 10 µg/mL.

B11: BD55-6488 (protein)
chain 1: EVQLVESGGDLVQPGGSLRLSCAASGFTFTSYPMHWVRHVPGRGLEFVSSITRNGDGSFYADAVKGRFTIFRDNSKNTLFLQMGGLTPEDSAVYYCARESWASTVVTLDFWGQGTLVTVSS
chain 2: DIQMTQSPSSLSASLGDSVTITCRASQSVSSYLNWYQQKPGKAPKLLIHGASTLQSGVPSRFRGSGSGTHFALTITSLQPEDFAIYYCQQSYTSPVYTFGPGTKLEIK
For the molecule B11, the “pseudovirus neutralization IC50” value in experiment [1], in experiment [2], in experiment [3], in experiment [4], in experiment [5] and in experiment [6] was greater than 10 µg/mL each time. The “pseudovirus neutralization IC50” value in experiment [7] was greater than 10 µg/mL.

B12: BD55-6474 (protein)
chain 1: QVQLVESGGGVVQPGRSLRLSCAASGFTFSRYGMHWVRQAPGKGLEWVAVFSYDGSENHYADSVKGRFTISRDTSKNTLYLQMNSLRADDTAVYYCAKGPLYASGWYEGFGDYWGQGTLVTVSS
chain 2: DIQMTQSPSAMSASVGDRVTITCRASQGISNSLAWFQQKPGKVPKRLIYAASSLESGVPSRFSGSGSGTEFTLTISSLQPEDLATYYCLQHNSYPYTFGQGTKLEIK
With B12, the “pseudovirus neutralization IC50” value in experiment [1], in experiment [2], in experiment [3], in experiment [4], in experiment [5] and in experiment [6] was greater than 10 µg/mL throughout. For the same molecule, in experiment [7], the “pseudovirus neutralization IC50” value is greater than 10 µg/mL.
